Results of unrelated studies side by side (data: NIAID ChemDB).

Shared fields: tests in culture; organism: Mycobacterium bovis BCG

An empty or dashed field is not shown.

compound | strain or isolate | changes | method | setting | endpoint | value
CC(C)=CCC/C(C)=C/CNc1ncnc2ccccc12 | - | - | luminescence | - | MIC50 | >20 µM
CCCCCCSCCCCCCCCCCCCC#CC(=O)O | mc22421 | - | - | - | MIC99 | 2.2 µM
FC(F)(F)c1ccc(Oc2ccc(Nc3ccnc4ccnn34)cc2)cc1 | - | - | luminescence | - | MIC50 | >10 µM
COc1cc(C(=O)OC2CC(C)=CCC3(C)CCC(O)(C(C)C)C23)ccc1O | Pasteur | - | - | - | MIC | 6.25 µg/mL
CCCCCCCCCCCCCC#CC(=O)OCC(O)CO | mc22421 | - | - | - | MIC99 | 1 µM
COc1ccc(/C(C)=N/NC(N)=S)cc1 | Carrying pMV261 | - | - | - | MIC | 0.25 µg/mL
FC(F)(F)c1ccc(Oc2ccc(Nc3ncnc4cccnc34)cc2)cc1 | - | - | luminescence | - | MIC50 | >10 µM
C[C@@H](NC(=O)c1cc(N=O)cc(C(F)(F)F)c1)c1ccccc1 | - | - | - | - | EC50 | 4.6 µg/mL
CC(C)[C@]1(C)CC[C@]2(C)C=C[C@](C)(O)C[C@H](OC(=O)c3ccccc3)C12 | Pasteur | - | - | - | MIC | >50 µg/mL
CNO | - | - | visual reading | - | MIC100 | <41.8 µg/mL
FC(F)(F)c1ccnc(Oc2ccc(Nc3ncnc4ccccc34)cc2)n1 | - | - | luminescence | - | MIC50 | >20 µM
CCCCCCSCCCCCCCCCCC#CC(=O)O | mc22421 | - | - | - | MIC99 | 2.4 µM
Fc1ccc2c(NCc3ccc(Oc4cccc(C(F)(F)F)c4)cc3)ncnc2c1 | - | - | luminescence | - | MIC50 | >20 µM
CCc1n[nH]c(=S)n1N | - | - | broth dilution / resazurin | 24 h | MIC | 62.5 µg/mL
CC(C)=CCC/C(C)=C/CNc1ncnc2cc(F)ccc12 | - | - | luminescence | - | MIC50 | >20 µM
CC(C)[C@]1(C)CC[C@]2(C)C=CC(C)(C)C[C@H](OC(=O)c3ccccc3)C12 | Pasteur | - | - | - | MIC | 50 µg/mL
CC(C)CCOc1ccc(NC(=S)Nc2ccc(OCCC(C)C)cc2)cc1 | NCTC 5692 ethR::hyg | - | - | - | MIC | 0.5 µg/mL
NNC(=O)c1ccncc1 | - | - | fluorescence | - | MIC | 0.7 µM
Cc1nc(Nc2ccc(Oc3cccc(C(F)(F)F)c3)cc2)c2ccccc2n1 | - | - | luminescence | - | MIC50 | >20 µM
CC1=C[C@H](OC(=O)c2ccc(O)cc2)C2[C@](C)(CC[C@@]2(O)C(C)C)C/C1=C/CO | Pasteur | - | - | - | MIC | >50 µg/mL
CCCCCCCCC#CCCCCCCC#CC(=O)O | mc22421 | - | - | - | MIC99 | 2.7 µM
CCc1nc2ccc(Cl)cn2c1C(=O)NCc1ccc(N2CCC(c3ccc(OC(F)(F)F)cc3)CC2)cc1 | - | bd oxidase knockout | broth dilution | - | MIC50 | 0.0016 µM
Nc1ccc(C(=O)O)c(O)c1 | - | DHFR-overexpressing | fluorescence | - | MIC | >20 µM
CCCCCCCCCCCCSCC#CC(=O)O | mc22421 | - | - | - | MIC99 | 4.6 µM
CC(C)(C)c1ccc(CCNc2ncnc3ccoc23)cc1 | - | - | luminescence | - | MIC50 | >20 µM
CCSCCCCCCCCCCCCC#CC(=O)O | mc22421 | - | - | - | MIC99 | 2.6 µM
Fc1ccc(Oc2ccc(CNc3ncnc4ccccc34)cc2)cc1 | - | - | luminescence | - | MIC50 | >20 µM
CCCCCCCCCCCCCC#CCC#CC(=O)O | mc22421 | - | - | - | MIC99 | 21.5 µM
CCc1cn(C2OC(COC(C)=O)C(OC(C)=O)C2F)c(=O)[nH]c1=O | - | - | resazurin | - | MIC75 | 100 µg/mL
c1ccc2c(Nc3ccc(NCCN4CCOCC4)cc3)ncnc2c1 | - | - | luminescence | - | MIC50 | >10 µM
CCOC(=O)NC(=O)c1ccsc1NC(=O)c1nc2ccccc2s1 | - | - | turbidity | biofilm | MIC99 | 0.04 µg/mL
CCc1cc(C(N)=S)ccn1 | NCTC 5692 ethR::hyg | - | - | - | MIC | 0.5 µg/mL
Fc1ccc2c(Nc3ccc(Oc4ccc(C(F)(F)F)cc4)cc3)nc(C(F)(F)F)nc2c1 | - | - | luminescence | - | MIC50 | >50 µM
O=C(C1CCN(c2nnc(-n3cccc3)s2)CC1)N1CCC(Cc2ccccc2)CC1 | recG | DprE1 mutant (E221Q) | fluorescence | - | MIC | 25 µM
FC(F)(F)Oc1ccc(C2CCN(c3ccc(CNc4ncnc5ccccc45)cc3)CC2)cc1 | - | - | luminescence | - | MIC50 | >20 µM
C[C@H]1COC2(CCN(c3nc(=O)c4cc(C(F)(F)F)cc([N+](=O)[O-])c4s3)CC2)O1 | recG | DprE1 mutant (G248S) | fluorescence | - | MIC | 0.004 µM

2 of the rows above, restated:

CCOC(=O)NC(=O)c1ccsc1NC(=O)c1nc2ccccc2s1 ; method: turbidity ; setting: biofilm ; endpoint: MIC99 ; value: 0.04 µg/mL
CC(C)=CCC/C(C)=C/CNc1ncnc2ccccc12 ; method: luminescence ; endpoint: MIC50 ; value: >20 µM

A number after MIC or MFC names an inhibition level or a share of isolates. ECn: concentration that inhibits the pathogen or its effect by n%. Neighbouring rows are from separate reports.